Results taken from article PMC8231256 (Molecules, 2021).
HELM strings list residues between dots; [ac] is acetyl, [am] amide, other brackets name non-standard units.

Assay: general procedure: Fmoc solid-phase peptide synthesis; 2-chlorotrityl chloride (CTC) resin (1.46 mmol/g, 100–200 mesh); for amides CTC resin modified with 1,6-diaminohexane li; DIC/HOBt; HATU/NMM for 6-heptynoic acid in N-methyl peptides
[1] = whole synthesis, Method C (MeOH)
[2] = whole synthesis, analytical LC-MS, C18 Phenomenex Gemini, two solvent systems, purity at 214 nm
[3] = whole synthesis, Method B (MeOH)
[4] = whole synthesis, Method D (MeCN)
[5] = late stage modification step, analytical LC-MS, C18 Phenomenex Gemini, two solvent systems, purity at 214 nm
[6] = whole synthesis, Method A (MeOH)

| Substance | isolated yield (whole synthesis) [%] | final LC-MS purity (whole synthesis, 214 nm) [%] | purity (crude or final not stated) [1] | final LC-MS purity [2] [%] | purity (crude or final not stated) [3] | purity (crude or final not stated) [4] | final purity (method not given) (whole synthesis, 214 nm) [%] | step yield (late stage modification step) [%] | final LC-MS purity [5] [%] | purity (crude or final not stated) [6] |
| --- | --- | --- | --- | --- | --- | --- | --- | --- | --- | --- |
| HCC(CH2)4CO-Agl(Me)-Val-Val(Me)-Ala-Phe(Me)-OH | 3 | >99 | Purity ≥ 99% | >95 |  |  |  |  |  |  |
| PEPTIDE1{[Hept6yn].[Val(Me)].[Val(Me)].[Agl(Me)-Ala].[Phe(Me)]}$$$$V2.0 | 2 | >99 | Purity ≥ 99% | >95 |  |  |  |  |  |  |
| PEPTIDE1{[Hept6yn].V.[Agl-Val].A.F.[NH(CH2)6NH2]}$$$$V2.0 | 3 | >96 |  | >95 | Purity ≥ 99% | Purity ≥ 96% |  |  |  |  |
| PEPTIDE1{[Hept6yn].V.V.V.[Ala(Me)].F.[NH(CH2)6NH2]}$$$$V2.0 | 3 |  |  | >99 | Purity ≥ 99% |  | >99 |  |  |  |
| PEPTIDE1{[Hept6yn].[5-MeNai-Val].V.A.F}$$$$V2.0 | 9 |  | Purity ≥ 99% | >99 |  |  | >99 |  |  |  |
| PEPTIDE1{[Hept6yn].[Val(Me)].[Val(Me)].[Val(Me)].[Ala(Me)].[Phe(Me)].[NH(CH2)6NH2]}$$$$V2.0 |  |  |  |  | Purity ≥ 99% |  | >99 | 14 | >99 |  |
| PEPTIDE1{[Hept6yn].V.V.V.A.F.[NH(CH2)6NH2]}$$$$V2.0 | 3 |  |  | >99 | Purity ≥ 99% |  | >99 |  |  |  |
| PEPTIDE1{[Hept6yn].V.V.V.A.F}$$$$V2.0 | 12 |  |  | >99 | Purity ≥ 99% |  | >99 |  |  |  |
| PEPTIDE1{[Hept6yn].V.[5-MeNai-Val].A.F}$$$$V2.0 | 4 | >96 | Purity ≥ 96% | >99 |  |  |  |  |  |  |
| PEPTIDE1{[Hept6yn].V.V.[Val(Me)].A.F.[NH(CH2)6NH2]}$$$$V2.0 | 2 |  |  | >99 | Purity ≥ 99% | Purity ≥ 98% | >99 |  |  |  |
| PEPTIDE1{[Hept6yn].V.V.V.A.[Phe(Me)].[NH(CH2)6NH2]}$$$$V2.0 | 2 |  |  | >99 | Purity ≥ 99% |  | >99 |  |  |  |
| PEPTIDE1{[Hept6yn].V.[Agl-Val].A.F}$$$$V2.0 | 3 |  | Purity ≥ 99% | >99 |  |  | >99 |  |  |  |
| PEPTIDE1{[Hept6yn].V.V.V.[Agl-Phe].[NH(CH2)6NH2]}$$$$V2.0 | 1 | >92 |  | >95 |  | Purity ≥ 99% |  |  |  | Purity ≥ 92% |
| PEPTIDE1{[Hept6yn].V.V.[Agl-Ala].F}$$$$V2.0 | 3 |  | Purity ≥ 99% | >99 |  |  | >99 |  |  |  |
| PEPTIDE1{[Hept6yn].[Val(Me)].[Val(Me)].[Agl(Me)-Ala].[Phe(Me)].[NH(CH2)6NH2]}$$$$V2.0 | 2 | >99 | Purity ≥ 99% | >95 |  |  |  |  |  |  |
| PEPTIDE1{[Hept6yn].[Val(Me)].[Agl(Me)-Val].[Ala(Me)].[Phe(Me)].[NH(CH2)6NH2]}$$$$V2.0 | 3 | >99 | Purity ≥ 99% | >95 |  |  |  |  |  |  |
| PEPTIDE1{[Hept6yn].[Agl(Me)-Val].[Val(Me)].[Ala(Me)].[Phe(Me)].[NH(CH2)6NH2]}$$$$V2.0 | 3 |  | Purity ≥ 99% | >99 |  |  | >99 |  |  |  |
| PEPTIDE1{[Hept6yn].[Val(Me)].[Agl(Me)-Val].[Ala(Me)].[Phe(Me)]}$$$$V2.0 | 3 | >99 | Purity ≥ 99% | >95 |  |  |  |  |  |  |
| PEPTIDE1{[Hept6yn].[Agl-Val].V.A.F.[NH(CH2)6NH2]}$$$$V2.0 | 3 | >94 |  | >95 | Purity ≥ 94% |  |  |  |  |  |
| HCC(CH2)4CO-Val-Val-Val-Agl-D-Phe-NH(CH2)6NH2 | 1 | >94 |  | >95 |  |  |  |  |  | Purity ≥ 94% |
| PEPTIDE1{[Hept6yn].[Agl-Val].V.A.F}$$$$V2.0 | 3 |  | Purity ≥ 99% | >99 |  |  | >99 |  |  |  |
| PEPTIDE1{[Hept6yn].[Val(Me)].V.V.A.F.[NH(CH2)6NH2]}$$$$V2.0 | 3 |  |  | >99 | Purity ≥ 99% | Purity ≥ 97% | >99 |  |  |  |
| PEPTIDE1{[Hept6yn].V.V.[Agl-Ala].F.[NH(CH2)6NH2]}$$$$V2.0 | 3 |  | Purity ≥ 99% | >99 |  |  | >99 |  |  |  |
| PEPTIDE1{[Hept6yn].[Val(Me)].[Val(Me)].[Val(Me)].[Ala(Me)].[Phe(Me)]}$$$$V2.0 |  |  |  |  | Purity ≥ 99% |  | >99 | 13 | >99 |  |
| PEPTIDE1{[Hept6yn].V.[Val(Me)].V.A.F.[NH(CH2)6NH2]}$$$$V2.0 | 2 |  |  | >99 | Purity ≥ 99% | Purity ≥ 95% | >99 |  |  |  |
